This data set deals with T1, CcpA (Staphylococcus aureus USA300) (UniProt P99175).
T1 sequence: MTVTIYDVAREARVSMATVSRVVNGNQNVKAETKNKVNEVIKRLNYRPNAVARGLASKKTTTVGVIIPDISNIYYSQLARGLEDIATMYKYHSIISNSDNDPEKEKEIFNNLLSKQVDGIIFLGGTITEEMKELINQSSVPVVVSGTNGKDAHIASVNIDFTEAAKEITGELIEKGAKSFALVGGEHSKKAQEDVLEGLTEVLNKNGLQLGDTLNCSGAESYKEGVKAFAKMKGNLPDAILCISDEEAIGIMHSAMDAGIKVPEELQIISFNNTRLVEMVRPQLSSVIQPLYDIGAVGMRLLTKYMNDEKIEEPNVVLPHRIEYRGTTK
The experiment in a line: competition with a labelled probe. The settings on record: 10-fold unlabeled (500 pmol) against biotin-Pcrt; recombinant protein; residues 1-329; protein details: His6 (pET28a); label: unlabeled as competitor; probe letters rebuilt from the primers and the genome.

For at least one entry, the source does not settle the construct or the ends of the probe.

For the sequence “GTATTTAATATTTTAACATAAAAAAATTTACAGTTAAGAATAAAAAACGACTAGTTAAGAAAAATTGGAAAATAAATGCTTTTAGCATGTTTTAATATAACTAGATCACAGAGATGTGATGGAAAATAGTTGATGAGTTGTTTAATTTTAAGAATTTTTATCTTAATTAAGGAAGGAGTGATTTCAATGGCACAAGATATCATTTCAACAATCGGTGACTTAGTAAAATGGATTATCGACACAGTGAACAAATTCACTAA (double strand) [Pagr2]”, the binding result is recorded as “binds”.

The record behind these values is article PMC12754628.
